Anti-infective test results gathered from many reports (values: NIAID ChemDB through PubChem).

All rows: whole-cell or culture tests; species: Mycobacterium tuberculosis

MIC50, MIC90 and the like: level of inhibition, or share of isolates inhibited. ECn is the concentration giving n% inhibition of infection, replication or growth. Lines come from different laboratories, so protocols vary. An empty or dashed field is not shown. Inhibition is in % at the dose shown (toxicity tests: loss of growth or viability). Two numbers with a dash give a range or band. MIC bound: limit read from a one-dose screen. Zones are inhibition diameters on agar.

structure | mutations | measure | strain | setting | read by | tested at | result
Fc1ccc(N(C(=S)Nc2ccccc2)C2CCCCC2)cc1Cl | - | MIC | - | - | visual reading | - | 400 µg/mL
C[C@@H]1CN(c2c(F)c(N)c3c(=O)c(C(=O)O)cn(C4CC4)c3c2F)C[C@H](C)N1 | - | MIC50 | - | - | - | - | 0.1 µg/mL
C=CCOc1ccc(/C=C/C(=O)c2ccc(O)cc2O)cc1 | - | MIC | H37Rv | - | broth dilution | - | 100 µg/mL
CC(C)=CCC/C(C)=C/CC/C(C)=C/CC/C=C(\C)CC/C=C(\C)CCC=C(C)C | - | MIC | 90-221387 | - | - | - | 51.3 µg/mL
Cc1cc2oc(=O)c(C3=NN(c4ccccc4)C(c4ccccc4-c4ccccn4)C3)c(O)c2cc1C | - | MIC90 | H37Rv | - | agar | - | >6.25 µg/mL
C=CCN1C(=O)/C(=C/c2ccc(OC)c(O)c2)S/C1=N\c1nc2ccccc2s1 | - | MIC | H37Rv | - | - | - | ≥25 µg/mL
O=C1C(c2ccccn2)=[N+]([O-])c2ccccc21 | - | EC50 | H37Rv | - | MTT | - | 17 µM
NNC(=O)c1ccncc1 | INH RIF resistant | MIC | Clinical isolate 109 | - | resazurin | - | 2 µg/mL
OC[C@H]1O[C@@H](n2cnc3c2NC=NC[C@H]3O)[C@H](O)[C@@H]1O | - | MIC | H37Rv | - | BACTEC | - | ≥12.5 µg/mL
COc1ccc2c(c1)C(=O)C(c1ccc(Cl)c(C(F)(F)F)c1)=[N+]2[O-] | - | MIC | H37Rv | - | MTT | - | 12.5 µM
NC(=O)c1nccnc1N | - | inhibition | H37Rv | - | BACTEC | 12.5 µg/mL | 3%
S=C(Nc1ccccc1)N(c1ccc(Cl)c(Cl)c1)C1CCCCC1 | - | MIC | - | - | visual reading | - | 400 µg/mL
Cc1ccc(-c2cc(-c3ccc(Cl)cc3)nc(/N=C3\C(=O)N(CN4CCCCC4)c4ccccc43)n2)cc1 | - | EC50 | H37Rv | - | BACTEC | - | <6.25 µg/mL
NC(=O)c1cnccn1 | - | MIC | H37Rv | - | resazurin | - | 100 µg/mL
CCCCc1nc(Cl)c(C2C(C(=O)Nc3ccc(Cl)cc3)=C(C)NC(C)=C2C(=O)Nc2ccc(Cl)cc2)[nH]1 | - | MIC | H37Rv | - | - | - | 1.56 µg/mL
O=c1c2ccccc2c2nc3ccccc3nc2n1C1CCCCC1 | - | MIC bound | H37Rv | - | BACTEC | - | >12.5 µg/mL
CNn1cc(C(=O)O)c(=O)c2cc(F)c(N3CCN(C)CC3)cc21 | - | MIC90 | 64 strains | - | - | - | 4 µg/mL
O=CNNC(=O)c1cnccn1 | - | MIC | H37Rv | - | BACTEC | - | ≥12.5 µg/mL
COc1cc(O)c2c(=O)c3cc(O)ccc3oc2c1 | - | MIC | 90-221387 | - | - | - | 3.1 µg/mL
CNC(=S)N(c1ccc(F)c(Cl)c1)C1CCCCC1 | - | zone | - | - | visual reading | 1000 µg/mL | 11.08 mm
S=c1[nH]nc(Cc2cccs2)n1/N=C\c1ccccc1 | - | inhibition | H37Rv (ATCC 27294) | - | - | 6.25 µg/mL | 36%
Cc1cc2oc(=O)c(C3=NN(c4ccccc4)C(c4ccc(Cl)cc4Cl)C3)c(O)c2cc1C | Isoniazid-resistant | MIC90 | INHR-MTB | - | agar | - | >6.25 µg/mL
Nc1nc(N)c2c(n1)C(=O)N(Cc1ccccc1)C2 | - | MIC bound | H37Rv | - | BACTEC | - | >12.5 µg/mL
O=C(/C=C/c1ccccn1)c1c(O)c2ccccc2oc1=O | Isoniazid-resistant | MIC90 | INHR-MTB | - | agar | - | >6.25 µg/mL
O=[N+]([O-])c1ccc(Oc2cnc3nc(-c4cccc(Br)c4)[nH]c3c2)cc1 | - | MIC80 | H37Rv | - | resazurin / absorbance | - | 1.1 µM
CCn1cc(C(=O)O)c(=O)c2cc(F)c(-n3cccc3)cc21 | - | MIC90 | 64 strains | - | - | - | 16 µg/mL
Oc1ccc(/C=N\n2c(Cc3cccs3)n[nH]c2=S)cc1O | - | inhibition | H37Rv (ATCC 27294) | - | - | 6.25 µg/mL | 69%
CCCCc1nc(Cl)c(C2C(C(=O)Nc3ccc(C)cc3)=C(C)NC(C)=C2C(=O)Nc2ccc(C)cc2)[nH]1 | - | inhibition | H37Rv | - | resazurin | 6.25 µg/mL | 49%
CCOc1ccc(N2C(=O)/C(=C/c3ccc(C)cc3)S/C2=N\c2ccccn2)cc1 | - | MIC | H37Rv | - | - | - | ≥25 µg/mL
CCCCc1nc(Cl)c(C2C(C(=O)Nc3cccc(F)c3)=C(C)NC(C)=C2C(=O)Nc2cccc(F)c2)[nH]1 | - | inhibition | H37Rv | - | resazurin | 6.25 µg/mL | 82%
CC(c1cccs1)N(C(=S)Nc1ccccc1)c1ccc(Cl)c(Cl)c1 | - | zone | - | - | visual reading | 1000 µg/mL | 20.38 mm
COc1ccc2c(c1)C(=O)C(c1ccc3cc(OC)ccc3c1)=[N+]2[O-] | - | EC50 | H37Rv | - | MTT | - | 2.8 µM
S=c1[nH]nc(Cc2cccs2)n1/N=C\c1ccc(Cl)c(Cl)c1 | - | inhibition | H37Rv (ATCC 27294) | - | - | 6.25 µg/mL | 55%
Cc1ccc(-c2cc(-c3ccc(Cl)cc3)nc(/N=C3\C(=O)Nc4ccc(Br)cc43)n2)cc1 | - | EC50 | H37Rv | - | BACTEC | - | <6.25 µg/mL
COc1cccc(/C=C/C(=O)c2c(O)c3cc(C)c(C)cc3oc2=O)c1O | - | MIC90 | H37Rv | - | agar | - | >6.25 µg/mL
NC1[C@H]2CN(c3nc4c(cc3F)c(=O)c(C(=O)O)cn4-c3ccc(F)cc3F)C[C@@H]12 | - | MIC90 | - | - | - | - | 64 µg/mL
NNC(=O)c1ccncc1 | - | MIC | H37Rv | 21 d | broth dilution | - | 1 µM
C=CCN1C(=O)/C(=C/c2ccc(C)cc2)S/C1=N\c1nc2ccccc2s1 | - | MIC | H37Rv | - | - | - | ≥25 µg/mL
COc1cc(/C=C2/SC(=O)N(C)C2=O)ccc1O | - | inhibition | H37Rv | - | BACTEC | 12.5 µg/mL | 2%
CC(C)C[C@@H]1NC(=O)[C@H](Cc2c[nH]c3ccccc23)NC(=O)[C@H](CCCCN)NC(=O)[C@H](CC(N)=O)NC(=O)[C@H](C(C)C)NC(=O)[C@@H](CC(C)C)NC1=O | - | MIC90 | H37Rv | - | turbidity | - | >30 µM
COc1cc(C(=O)NCC(F)(F)F)c2ncn(Cc3ncnc(OC)c3C)c2c1 | - | MIC80 | H37Rv | - | visual reading / absorbance | - | <1.22 µM
O=C(CCSCCC(=O)N/N=C/C(O)C(O)C(O)CO)N/N=C/C(O)C(O)C(O)CO | - | MIC bound | H37Rv | - | BACTEC | - | >12.5 µg/mL
O=C1C=[N+]([O-])c2ccccc21 | - | MIC | H37Rv | - | MTT | - | 12.5 µM
CC1CCCN(CC(O)CN2CCN(CC(O)CN3CCCC(C)C3)CC2)C1 | - | MIC bound | H37Rv | - | BACTEC | - | >12.8 µg/mL
O=C1C(c2ccc(Oc3ccccc3)cc2)=[N+]([O-])c2cc3c(cc21)OCO3 | - | MIC | H37Rv | - | MTT | - | 50 µM
Cc1c(Cn2cnc3c(C(=O)NCCF)cccc32)ncnc1N(C)C | - | MIC80 | H37Rv | - | visual reading / absorbance | - | <0.39 µM
Cc1ccc(-c2cc(-c3ccc(Cl)cc3)nc(/N=C3\C(=O)Nc4ccc(Cl)cc43)n2)cc1 | - | EC50 | H37Rv | - | BACTEC | - | <6.25 µg/mL
Cc1ccc2c(c1)nc(-c1ccc(Cl)cc1)c1[nH]ccc12 | - | MIC | H37Rv | - | visual reading / absorbance | - | 17.1 µM
O=c1oc2ccccc2c(O)c1C1=NN(c2ccccc2)C(c2ccc(Cl)cc2Cl)C1 | - | MIC90 | H37Rv | - | agar | - | 6.94 µg/mL
CC(C)C[C@@H]1NC(=O)[C@H](Cc2c[nH]c3ccccc23)NC(=O)[C@@H](CCCN=C(N)N)NC(=O)[C@H](CC(N)=O)NC(=O)[C@H](C(C)C)NC(=O)[C@@H](CC(C)C)NC1=O | - | MIC90 | HN878 | - | turbidity | - | 0.99 µM
COc1ccc(/C=N\n2c(Cc3cccs3)n[nH]c2=S)cc1O | - | inhibition | H37Rv (ATCC 27294) | - | - | 6.25 µg/mL | 44%
O=C(O)c1cn(-c2ccc(F)cc2)c2cc(N3CCNCC3)c(F)cc2c1=O | - | MIC50 | 64 strains | - | - | - | 4 µg/mL
COc1cc(C=O)cc(OC)c1O | - | MIC | 90-221387 | - | - | - | >100 µg/mL
NNC(=O)c1ccncc1 | - | MIC90 | H37Ra | - | turbidity | - | 0.12 µM
Cc1ccc(-c2nc3ncc(Oc4ccc([N+](=O)[O-])cc4)cc3[nH]2)cc1 | - | MIC80 | H37Rv | - | resazurin / absorbance | - | 1.3 µM
CC(C)C[C@@H]1NC(=O)[C@H](Cc2c[nH]c3ccccc23)NC(=O)[C@@H](CCCN)NC(=O)[C@H](CC(N)=O)NC(=O)[C@H](C(C)C)NC(=O)[C@@H](CC(C)C)NC1=O | - | EC50 | HN353 | - | turbidity | - | 1.42 µM
Cc1c(N)nc(C(CC(N)=O)NCC(N)C(N)=O)nc1C(=O)NC(C(=O)NC(C)C(O)CC(=O)NC(C(=O)NC(OC1OC(C)C(N)C(O)C1O)C(O)c1nc(-c2nc(C(=O)NCCC[S+](C)C)cs2)cs1)C(C)O)C(OC1OC(CO)C(O)C(O)C1OC1OC(CO)C(O)C(OC(N)=O)C1O)c1cnc[nH]1.Cl.Cl.Cl.[Cl-] | - | MIC | H37Rv | - | BACTEC | - | 0.4 µg/mL
CCOc1ccc(N2C(=O)/C(=C\C=C\c3ccccc3)S/C2=N\c2ccccn2)cc1 | - | MIC | H37Rv | - | - | - | ≥25 µg/mL
COC(=O)c1ccnc(-c2cc(C(=O)OC)ccn2)c1 | - | MIC bound | H37Rv | - | resazurin | - | >6.25 µg/mL
Cc1ccc(-c2cc(-c3ccc(Cl)cc3)nc(/N=C3\C(=O)N(CN(C)C)c4ccccc43)n2)cc1 | - | EC50 | H37Rv | - | BACTEC | - | <6.25 µg/mL
C=CCOc1cc(O)cc(O)c1C(=O)[C@@H](C)CC | - | MIC | H37Rv | - | broth dilution | - | 100 µg/mL
COc1ccccc1N1CCN(C2NC(CC(=O)c3ccccc3)NN2C)CC1 | - | MIC bound | H37Rv | - | resazurin | - | >6.25 µg/mL
COc1ccc(-c2nc3ncc(Oc4ccc([N+](=O)[O-])cc4)cc3[nH]2)cc1OC | - | MIC80 | H37Rv | - | resazurin / absorbance | - | 1.4 µM
N[C@@H]1CN(c2c(F)cc3c(=O)c(C(=O)O)cn([C@@H]4C[C@@H]4F)c3c2Cl)CC12CC2 | - | MIC50 | - | - | - | - | 0.12–1 µg/mL
FC(F)(F)c1nc(-c2ccccc2)oc1Sc1nnc(Sc2oc(-c3ccccc3)nc2C(F)(F)F)s1 | - | MIC bound | H37Rv | - | BACTEC | - | >12.5 µg/mL
COc1ccc2cc(C3=[N+]([O-])c4ccccc4C3=O)ccc2c1 | - | MIC | H37Rv | - | MTT | - | 3.2 µM
CN(C)c1ccc(O)c2c1C[C@H]1C[C@H]3[C@H](N(C)C)C(=O)C(C(N)=O)=C(O)[C@@]3(O)C(=O)C1=C2O | - | MBC | - | - | - | - | 64 µg/mL
CN(C)c1ccc(/C=N\n2c(Cc3cccs3)n[nH]c2=S)c(Cl)c1 | - | inhibition | H37Rv (ATCC 27294) | - | - | 6.25 µg/mL | 58%
CC1OC(n2ccc(NC(=O)c3ccc(NC(=O)C(C)(N)CO)cc3)nc2=O)CCC1OC1OC(C)C(N(C)C)C(O)C1O | - | MIC | EMB-R | - | - | - | 0.8 µg/mL
CCn1cc(C(=O)O)c(=O)c2cc(F)c(N3CCN(C)CC3)cc21 | - | MIC | 36 strains | - | - | - | 0.3–2.5 µg/mL
C=C(C)C1CC2=C(O1)C(=O)c1ccccc1C2=O | - | MIC | H37Rv | - | resazurin | - | 6.25 µg/mL
COc1ccc(-c2ccc(O)cc2)c2c1C[C@H](O)C(C)(C)O2 | - | MIC | 90-221387 | - | - | - | >100 µg/mL
CC1=NN(c2ccccc2)C(=O)C1N=Nc1cc(Cl)cc(S(=O)(=O)O)c1O | - | inhibition | H37Rv | - | BACTEC | 12.5 µg/mL | -5%
O=[N+]([O-])c1ccc(Oc2cnc3nc(-c4cccc(O)c4O)[nH]c3c2)cc1 | - | MIC80 | H37Rv | - | resazurin / absorbance | - | 0.6 µM
Nc1nnc2nc(C3(c4nc5nnc(N)n5[nH]c4=O)Cc4ccccc4C3=O)c(=O)[nH]n12 | - | MIC bound | H37Rv | - | BACTEC | - | >12.5 µg/mL
CN1CCN(c2cc3c(cc2F)c(=O)c(C(=O)O)cn3-c2ccc(F)cc2)CC1 | - | MIC50 | 64 strains | - | - | - | 4 µg/mL
CC1=C[C@@]23[C@H](C=C(C(=O)O)[C@@H]2COC(=O)[C@]32CO2)[C@H]1C | - | inhibition | H37Rv | - | BACTEC | 12.5 µg/mL | 6%
O=C(/C=C/c1ccc(O)cc1O)c1c(O)c2ccccc2oc1=O | Isoniazid-resistant | MIC90 | INHR-MTB | - | agar | - | >6.25 µg/mL
c1ccc2c(c1)ccc1c2nnc2nnnn21 | - | inhibition | H37Rv | - | resazurin | 6.25 µg/mL | 65%
CCOc1ccc(-n2c(O)c(/C=C3\C=CC(=O)c4ncccc43)s/c2=N\c2ccccn2)cc1 | - | MIC | H37Rv | - | - | - | ≥25 µg/mL
Cc1ccc(C(=O)N/N=C/C(=O)O)cc1 | - | MIC bound | H37Rv | - | BACTEC | - | >12.5 µg/mL
O=c1oc2ccccc2c(O)c1C1=NNC(c2ccc(C(F)(F)F)cc2)C1 | Isoniazid-resistant | MIC90 | INHR-MTB | - | agar | - | 14.78 µg/mL
CC(=O)c1c(O)c(C)c(O)c2c1OC1=CC(=O)C(C(C)=O)C(=O)C12C | - | MIC | KM-R | - | - | - | 12.5 µg/mL
CCOc1ccc(N2C(=O)/C(=C/c3ccncc3)S/C2=N\c2ccccn2)cc1 | - | MIC | H37Rv | - | - | - | ≥25 µg/mL